{"source": "paper PMC3393750", "about": "“Small Molecule Inhibitors of the LEDGF Site of Human Immunodeficiency Virus Integrase Identified by Fragment Screening and Structure Based Design” (PLoS ONE, 2012)", "test_system": "Flag-His6 fusion protein", "assay": "AlphaScreen counter screen", "conditions": "counter screen vs AS", "method": "For the IN-LEDGF AS assay, compound dilutions and His6-tagged IN (30 nM final concentration) were initially incubated together in 10 µl of reaction buffer (25 mM Tris-Cl pH 7.5, 25 mM NaCl, 5 mM MnCl2, 5 mM MgCl2, 5 mM BME, 50 µg/ml bovine serum albumin and 0.05% (v/v) Tween-20) for 10 min at room temperature in AlphaPlate™-384 SW plates (Perkin-Elmer). Subsequently, 10 µl reaction buffer containing Flag-tagged LEDGF (30 nM final concentration), AS Ni-chelate donor beads (Perkin-Elmer; 5 µg/ml final) and AlphaLISA anti-FLAG acceptor beads (Perkin-Elmer; 5 µg/ml final) were added and protein association allowed to occur for 1 hour in the dark at 30°C before emission from the donor beads was measured using a PHERAstar FS plate-reader (BMG Labtech). Counter screen assays to ensure the compounds were not inhibiting the binding of the His or FLAG tags to the beads or quenching of the signal, were performed under the same reaction conditions except that a Flag-His6 fusion protein was used (20 nM final) instead of individual His6-tagged IN and Flag-tagged LEDGF proteins, and the initial 10 min incubation at room temperature was omitted. The specificity of FLAG-LEDGF for IN binding was confirmed by competing the FLAG-LEDGF with untagged LEDGF. At a 1∶1 molar ratio with FLAG-LEDGF, untagged LEDGF reduced the AS signal by 50%."}
{"smiles": "C=CCN(Cc1ccccc1C(=O)NC(CCC)c1ccc(OC)cc1)Cc1ccc2c(c1C(=O)O)OCO2", "note": "(stereo not shown) [Compound 10]", "values": [{"measurement": "fold less activity in counter screen than in AS assay", "value": 6, "unit": "fold"}]}
